We go through one compound from BindingDB's records for patent US11452717 (SANFORD BURNHAM PREBYS MEDICAL DISCOVERY INSTITUTE, 2022).

Protein sequences, listed by entry. Tags and fused reporters are not part of them. Lines headed by an entry give the natural chain unless they say otherwise; changes in a name come on top.
UniProt P43490: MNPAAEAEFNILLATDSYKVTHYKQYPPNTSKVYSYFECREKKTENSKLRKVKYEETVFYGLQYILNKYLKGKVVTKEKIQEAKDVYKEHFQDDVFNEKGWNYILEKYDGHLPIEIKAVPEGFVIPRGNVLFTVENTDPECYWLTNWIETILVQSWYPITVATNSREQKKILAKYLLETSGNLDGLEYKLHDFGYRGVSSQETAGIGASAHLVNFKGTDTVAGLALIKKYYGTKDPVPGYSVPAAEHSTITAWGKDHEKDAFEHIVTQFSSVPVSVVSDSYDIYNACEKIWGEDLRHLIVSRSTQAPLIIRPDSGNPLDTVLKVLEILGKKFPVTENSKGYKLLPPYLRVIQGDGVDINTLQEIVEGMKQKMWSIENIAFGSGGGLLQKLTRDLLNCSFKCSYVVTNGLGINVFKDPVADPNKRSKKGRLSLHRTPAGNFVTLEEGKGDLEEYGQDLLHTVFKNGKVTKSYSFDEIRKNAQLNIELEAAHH

This experiment concerns the target Nicotinamide phosphoribosyltransferase (Homo sapiens, UniProt P43490). Nature of the experiment: Enzyme Assay and NMN Detection.

Structures are written as SMILES.

As usually defined, the EC50 is the midpoint of the concentration-response curve. Low values mean greater potency, high ones weaker potency. Take `CCOC(=O)c1ccc(NC(=O)NCc2ccncc2)cc1` [US11452717, Compound TableB-2.28]: the concentration for a half-maximal effect (EC50) was over 20 µM.
